Source: patent US20260240976A1, “T[…] VACCINES BASED ON VALIDATED TARGET EPITOPES” (Deutsches Krebsforschungszentrum Stiftung des öffentlichen …, priority 2023, published 2026)
The amount applied is not stated for every result.

Tested on: HPV16-positive cells
Test: HLA immunoprecipitation and LC-MS of HLA-presented peptides
Assay type: cell-based, human
Parameters: key: +: presentation: HLA-presentation of the peptide by HPV16-positive cells shown by MS; +*: *highlights data from published resources
Details: HLA restriction A01

| Substance | presentation: HLA-presentation of the peptide by HPV16-positive cells shown by MS |
| --- | --- |
| 2 (HGDTPTLHEY; Human papillomavirus 16) [compound 2] | + |

Same assay, conditions: HLA restriction A02

| Substance | presentation: HLA-presentation of the peptide by HPV16-positive cells shown by MS |
| --- | --- |
| 18 (RTLEDLLMGT; Human papillomavirus 16) [compound 18] | + |

Same assay, conditions: HLA restriction A03

| Substance | presentation: HLA-presentation of the peptide by HPV16-positive cells shown by MS |
| --- | --- |
| 57 (HLDKKQRFH; Human papillomavirus 16) [compound 57] | + |
| 53 (CVYCKQQLLR; Human papillomavirus 16) [compound 53] | + |

Same assay, conditions: HLA restriction A11

| Substance | presentation: HLA-presentation of the peptide by HPV16-positive cells shown by MS |
| --- | --- |
| 56 (IILECVYCK; Human papillomavirus 16) [compound 56] | + |
| 53 (CVYCKQQLLR; Human papillomavirus 16) [compound 53] | + |

Same assay, conditions: HLA restriction A24

| Substance | presentation: HLA-presentation of the peptide by HPV16-positive cells shown by MS |
| --- | --- |
| 80 (VYCKQQLL; Human papillomavirus 16) [compound 80] | + |
| 81 (RAHYNIVTF; Human papillomavirus 16) [compound 81] | + |
| 96 (AHYNIVTF; Human papillomavirus 16) [compound 96] | + |

Same assay, conditions: HLA restriction B07

| Substance | presentation: HLA-presentation of the peptide by HPV16-positive cells shown by MS |
| --- | --- |
| 98 (TPTLHEYML; Human papillomavirus 16) [compound 98] | + |
| 97 (RPRKLPQL; Human papillomavirus 16) [compound 97] | + |
| 81 (RAHYNIVTF; Human papillomavirus 16) [compound 81] | + |
| 140 (RPGKLPQL; Human papillomavirus 16) [compound 140] | + |

Same assay, conditions: HLA restriction B15

| Substance | presentation: HLA-presentation of the peptide by HPV16-positive cells shown by MS |
| --- | --- |
| 112 (SVYGTTLEQQY; Human papillomavirus 16) [compound 112] | + |
| 114 (LQPETTDLYCY; Human papillomavirus 16) [compound 114] | + |
| 113 (LQPETTDLYC; Human papillomavirus 16) [compound 113] | + |
| 144 (AHYNIVTF; Human papillomavirus 16) [compound 144] | + |
| 110 (GQAEPDRAHY; Human papillomavirus 16) [compound 110] | + |
| 107 (KQQLLRREVY; Human papillomavirus 16) [compound 107] | + |
| 81 (RAHYNIVTF; Human papillomavirus 16) [compound 81] | + |
| 108 (AFRDLCIVY; Human papillomavirus 16) [compound 108] | + |
| 109 (LQPETTDLY; Human papillomavirus 16) [compound 109] | + |
